PubChem BioAssay AID624099 | ICCB-Longwood – 2012

Purpose: 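Host factors E2 relies on to silence an HPV18 LCR reporter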 (primary screen)
System: human C33A cervical carcinoma cells (HPV-negative) stably expressing BPV1 E2 and an HPV18 LCR luciferase reporter
Reagents: siRNA pool against human genes, 40 nM
Time to read-out: 72 h
Measurement: 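Per-well luciferase luminescence, z-scored on each plate against the plate mean and SD with control wells left out, then averaged across three replicate plates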
Scale: mean z-score and z-score: higher = stronger reporter signal, weaker E2 silencing
Call rule: 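Mean z ≥ 2 together with z ≥ 2 in two or more of the three replicates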
Here is a random part of about 21,000 deposited reagents. 497 of all reagents (2.4%) were called active. 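Higher z means weaker E2 silencing; only reporter increases were scored, and knock-downs that hurt cell survival may mask genuine repressor factors.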 The numbers tell different reagents against one gene apart.

| target | reagent | mean z-score | z-score, replicate A | z-score, replicate B | z-score, replicate C | outcome |
| --- | --- | --- | --- | --- | --- | --- |
| HRK | 1 | 0.2 | 0.14 | 0.22 | 0.23 | inactive |
| ATG2B | 1 | 0.39 | 0.34 | 0.67 | 0.16 | inactive |
| RP2 | 1 | 0.92 | 1.17 | 0.57 | 1.03 | inactive |
| MTHFD2L | 1 | -1.38 | -1.5 | -1.69 | -0.96 | inactive |
| MTHFD2L | 2 | 0.68 | 1.12 | 0.38 | 0.54 | inactive |
| HP1BP3 | 1 | 0.27 | -0.26 | 0.59 | 0.49 | inactive |
| MEI1 | 1 | -1.1 | -1.3 | -0.92 | -1.07 | inactive |
| MEI1 | 2 | 0.6 | 0.67 | 0.55 | 0.58 | inactive |
| ARMCX2 | 1 | 0.25 | 0.31 | 0 | 0.42 | inactive |
| LOC389230 (retired record) | 1 | 0.82 | 1.29 | 0.69 | 0.47 | inactive |
| ENY2 | 1 | 3.02 | 2.58 | 2.97 | 3.51 | active |
| THEM6 | 1 | 0.49 | 0.66 | 0.49 | 0.31 | inactive |
| DPPA5 | 1 | 0.74 | 0.68 | 0.52 | 1.02 | inactive |
| ANKRD11 | 1 | 0.54 | 0.62 | 0.69 | 0.32 | inactive |
| UBE2D1 | 1 | 0.57 | 0.43 | 0.91 | 0.38 | inactive |
| LOC401449 (retired record) | 1 | 0.37 | 0.68 | 0.47 | -0.04 | inactive |
| ODF2L | 1 | -0.83 | -0.92 | -0.75 | -0.82 | inactive |
| AP3S2 | 1 | 0.41 | 0.38 | 0.5 | 0.35 | inactive |
| XAF1 | 1 | -1.4 | -0.86 | -1.61 | -1.71 | inactive |
| LOC400939 (retired record) | 1 | -0.95 | -0.4 | -1.13 | -1.34 | inactive |
| SLC30A10 | 1 | -0.69 | -0.84 | -0.6 | -0.61 | inactive |
| KRTAP9-3 | 1 | -0.64 | -0.63 | -0.66 | -0.63 | inactive |
| CHMP4C | 1 | -0.93 | -0.71 | -1.24 | -0.82 | inactive |

The list goes on, starting with the last 4 of the part before.
| target | reagent | mean z-score | z-score, replicate A | z-score, replicate B | z-score, replicate C | outcome |
| --- | --- | --- | --- | --- | --- | --- |
| LOC400939 (retired record) | 1 | -0.95 | -0.4 | -1.13 | -1.34 | inactive |
| SLC30A10 | 1 | -0.69 | -0.84 | -0.6 | -0.61 | inactive |
| KRTAP9-3 | 1 | -0.64 | -0.63 | -0.66 | -0.63 | inactive |
| CHMP4C | 1 | -0.93 | -0.71 | -1.24 | -0.82 | inactive |
| CDK7 | 1 | -0.21 | 0.32 | -0.39 | -0.56 | inactive |
| GNL2 | 1 | -1.52 | -1.14 | -1.58 | -1.85 | inactive |
| LOC387870 (retired record) | 1 | -0.06 | -0.28 | 0.03 | 0.07 | inactive |
| EEF1AKMT3 | 1 | -0.48 | -0.39 | -0.54 | -0.52 | inactive |
| SHISAL2A | 1 | 1.3 | 1.59 | 1.06 | 1.25 | inactive |
| H2BC10 | 1 | -0.51 | -0.31 | -0.94 | -0.29 | inactive |
| HLA-DRB5 | 1 | -1.19 | -1.35 | -1.05 | -1.17 | inactive |
| PPP4C | 1 | -0.55 | -0.98 | -0.6 | -0.08 | inactive |
| P2RY11 | 1 | 0.59 | 0.39 | 0.69 | 0.69 | inactive |
| PGBD2 | 1 | -0.05 | 0.04 | -0.45 | 0.26 | inactive |
| CLEC12A | 1 | 0.23 | -0.04 | 0.53 | 0.21 | inactive |
| SLC38A5 | 1 | -1.34 | -0.95 | -2.12 | -0.94 | inactive |
| TWSG1 | 1 | 2.38 | 2.69 | 2.32 | 2.13 | active |
| TMUB2 | 1 | 0.33 | 0.34 | 0.39 | 0.25 | inactive |
| IMPACT | 1 | -0.31 | -0.19 | -0.19 | -0.56 | inactive |
| CEP55 | 1 | 0.71 | 0.64 | 0.92 | 0.58 | inactive |
